Pooled drug test results. Numbers come from NIAID ChemDB, via PubChem.

All rows: growth or infection tests; species: Mycobacterium avium; read-out: MIC

Rows are shuffled and stem from different studies. An empty or dashed field is not shown. a–b is a range or a potency band.

| smiles | strain | read by | setting | value |
|---|---|---|---|---|
| Fc1ccc(/C(Cn2ccnc2)=N\OC/C=C/c2ccccc2)cc1 | CIP103317 |  |  | 4 µg/mL |
| O=C(Nc1ccccc1)c1ncccc1S | CNCTC MY330/88 |  |  | 62.5 µM |
| C/C=C(\C)C(=O)OC/C=C\C#CC#C/C=C\C(=O)OC |  |  |  | >100 µg/mL |
| CC(=O)Nc1ccc(OC/C(N)=N\NC(=O)c2ccncc2)cc1 | ATCC 19421 |  |  | >100 µg/mL |
| O=C(Nc1ccc(Cl)c(Cl)c1)c1cc(Cl)ccc1OS(=O)(=O)c1ccccc1 | 330/88 |  | 14 d | 16 µM |
| Clc1ccc(/C(Cn2ccnc2)=N/OCc2cccc3ccccc23)c(Cl)c1 | CIP103317 |  |  | >16 µg/mL |
| N/C(=N\NC(=O)c1ccccc1)SCc1cccc(Cl)c1 | ATCC 19421 |  |  | >100 µg/mL |
| O=C(NCc1ccc(Cl)cc1)c1ncccc1O | CNCTC MY330/88 |  |  | 62.5 µM |
| CCCCCCCCCOc1cccc(NC(=O)OCC[NH+]2CCCC2)c1 | MY330/88 |  |  | 32 µM |
| CCSc1nnnn1-c1ccc(C)c(C)c1 | 80/72 |  |  | 250 µM |
| CCCCOc1cccc(NC(=O)OCCN2CCCCCC2)c1 | MY330/88 |  |  | 62.5 µM |
| OCCN1CCN(CC/C=C2/c3ccccc3Sc3ccc(C(F)(F)F)cc32)CC1 | T 10350 |  |  | 25 µg/mL |
| CC(=O)NC[C@H]1CN(c2ccc(N3CCSCC3)c(F)c2)C(=O)O1 |  |  |  | 1 µg/mL |
| COc1ccc(C(=O)NNC(N)=S)cc1 | ATCC 19421 |  |  | >100 µg/mL |
| c1ccc(-c2ccc(CNc3ccccc3-n3ccnc3)cc2)cc1 | 103317 |  |  | >16 µg/mL |
| CCCCCCCCCCOc1cccc(NC(=O)OCC[NH+]2CCCC2)c1 | MY330/88 |  |  | 16 µM |
| O=C(Nc1cccc(F)c1)c1cc(Cl)ccc1O | CNCTC MY330/88 |  |  | 31 µM |
| C/C=C/CCC(C)CCC(=O)O |  |  |  | 250 µM |
| CCn1cc(C(=O)OCC(=O)O[C@H]2[C@H](C)[C@H](O)[C@H](C)[C@@H](O)[C@@H](C)/C=C/C=C(/C)C(=O)Nc3c(/C=N/N4CCN(C)CC4)c(O)c4c5c(c(C)c(O)c4c3O)O[C@](C)(O/C=C/[C@H](OC)[C@H]2C)C5=O)c(=O)cc1N1CCN(C)CC1 |  |  |  | <0.2 µg/mL |
| CC(C)c1c(O)cc([C@@H](N=C(N)N)C(=O)NCC(=O)O)cc1O | Strain #2 |  |  | 6.25 µg/mL |
| CCOc1ccc(NC(=O)OCCN2CCOCC2)cc1 | MY330/88 |  |  | 1000 µM |
| C=CCS/C(N)=N/NC(=O)c1cc(OC)c(OC)c(OC)c1 | ATCC 19421 |  |  | >100 µg/mL |
| CCCOc1ccc(NC(=O)OCCN2CCCCCC2)cc1 | MY330/88 |  |  | 125 µM |
| NC(=S)NNC(=O)c1ccccc1 | ATCC 19421 |  |  | >100 µg/mL |
| O=C(Nc1ccc(F)cc1)c1cc(Cl)ccc1OS(=O)(=O)c1ccccc1 | 330/88 |  | 14 d | 16 µM |
| Cc1c(CN2CCSCC2)cc(-c2cccc3ccccc23)n1-c1ccccc1 |  |  |  | >16 µg/mL |
| CC(C)=CCC/C(C)=C\CC(C/C=C(/C)CCC=C(C)C)C(=O)O |  |  |  | >1000 µM |
| CC[C@H]1OC(=O)[C@H](C)C(=O)[C@H](C)[C@@H](O[C@@H]2O[C@H](C)C[C@H](N(C)C)[C@H]2O)[C@](C)(OC)C[C@@H](C)C(=O)[C@H](C)[C@H]2N(CCCCn3cnc(-c4cccnc4)c3)C(=O)O[C@]12C | Isolate 1110 |  |  | 40 µg/mL |
| COc1ccc(NC(=O)OCC[NH+]2CCCC2)cc1 | MY330/88 |  |  | >1000 µM |
| Cc1ccccc1OC/C(N)=N\NC(=O)c1ccncc1 | ATCC 19421 |  |  | >100 µg/mL |
| CCCCOc1ccccc1NC(=O)OCC[NH+]1CCCC1 | MY330/88 |  |  | 125 µM |
| CCCSc1nnnn1-c1ccc(C)c(C)c1 | 80/72 |  |  | 250 µM |
| CCCCC(C/C=C(/C)CCC=C(C)C)C(=O)O |  |  |  | 250 µM |
| Cc1c(CN2CCN(C)CC2)cc(-c2ccc(Cl)cc2)n1-c1ccc(Cl)cc1 | 14 strains |  |  | 0.4–3.1 µg/mL |
| Clc1ccc(/C(Cn2ccnc2)=N\OC/C=C/c2ccccc2)c(Cl)c1 | CIP103317 |  |  | 8 µg/mL |
| c1ccc(-c2ccc(CNc3ccccc3N3CCSCC3)cc2)cc1 | 103317 |  |  | >16 µg/mL |
| N/C(COc1ccccc1Cl)=N/NC(=O)c1ccncc1 | ATCC 19421 |  |  | >100 µg/mL |
| Clc1ccc(/C(Cn2ccnc2)=N\OC/C=C/c2ccccc2)cc1 | CIP103317 |  |  | 8 µg/mL |
| N/C(COc1cccc(Cl)c1)=N/NC(=O)c1ccncc1 | ATCC 19421 |  |  | 100 µg/mL |
| C/C=C(/C)C(=O)OC/C=C\C#CC#C/C=C\C(=O)OC |  |  |  | 25 µg/mL |
| C=CCS/C(N)=N/NC(=O)c1ccccc1 | ATCC 19421 |  |  | >100 µg/mL |
| Cc1c(CN2CCN(C)CC2)cc(-c2ccccc2F)n1-c1ccccc1F |  |  |  | >16 µg/mL |
| O=C(Nc1ccc(Cl)cc1)c1ccccc1O | CNCTC MY330/88 |  |  | 31 µM |
| O=C(Nc1ccc(Cl)c(Cl)c1)c1ccccc1O | CNCTC MY330/88 |  |  | 16 µM |
| CCSc1nnnn1-c1cccc(C)c1 | 80/72 |  |  | 1000 µM |
| Clc1ccc(/C(Cn2ccnc2)=N\OCc2ccccc2)c(Cl)c1 | CIP103317 |  |  | >16 µg/mL |
| CCCCCCCCCCCCC(C(=O)O)c1ccccc1 |  |  |  | 1.67 µM |
| O=C(Nc1cccc(C(F)(F)F)c1)c1ccc(Cl)cc1OS(=O)(=O)c1ccccc1 | 330/88 |  | 14 d | 125 µM |
| CN[C@@H]1[C@H](O[C@H]2[C@H](O[C@H]3[C@H](O)[C@@H](O)[C@H](N=C(N)N)[C@@H](O)[C@@H]3N=C(N)N)O[C@@H](C)[C@]2(O)C=O)O[C@@H](CO)[C@H](O)[C@H]1O | S-141 |  |  | 12.5 µg/mL |
| O=C(Oc1ccc(Cl)cc1C(=O)Nc1ccc(Br)cc1)c1ccccc1 | 330/88 | broth dilution | 21 d | 8 µM |
| Cc1c(CN2CCSCC2)cc(-c2ccc(Cl)cc2)n1-c1ccc(F)cc1 |  |  |  | >16 µg/mL |
| Cc1nc2scc(-c3ccco3)c2c(=O)n1/N=C/c1cccs1 | CNCTC MY330/88 |  |  | 52 µM |
| O=C(Nc1ccc(Cl)c(Cl)c1)c1cc([N+](=O)[O-])ccc1O | CNCTC MY330/88 |  |  | 62.5 µM |
| Clc1ccc(/C(Cn2ccnc2)=N\OCc2ccc(-c3ccccc3)cc2)cc1 | CIP103317 |  |  | 16 µg/mL |
| CCOc1c(N2CCC(C(C)(C)N)C2)c(F)cc2c(=O)c(C(=O)O)cn(C3CC3)c12 | LR114R |  |  | 0.06 µg/mL |
| Cc1ccc(-n2nnnc2SC(C)C)cc1 | 80/72 |  |  | 1000 µM |
| O=C(NCc1cccc(Cl)c1)c1ncccc1O | CNCTC MY330/88 |  |  | 62.5 µM |
| COc1cccc(OC/C(N)=N\NC(=O)c2ccncc2)c1 | ATCC 19421 |  |  | >100 µg/mL |
| Cc1c(F)c(N2CCNC(C)C2)cc2c1c(=O)c(C(=O)O)cn2C1CC1 | ATCC 25291 |  |  | 1 µg/mL |
| CN(C)CC/C=C1\c2ccccc2Sc2ccc(Cl)cc21 | T 10350 |  |  | 25 µg/mL |
| CN1CCN(c2cccc(NCc3ccc(-c4ccccc4)cc3)c2)CC1 | 103317 |  |  | >16 µg/mL |
| CN(C)c1ccc(NC(=O)c2cc([N+](=O)[O-])ccc2O)cc1 | CNCTC MY330/88 |  |  | 500 µM |
| Cc1c(CN2CCSCC2)cc(-c2ccccc2Cl)n1-c1ccccc1F |  |  |  | >16 µg/mL |
| C(=C\c1ccccc1)/CCNc1ccc(N2CCSCC2)cc1 | 103317 |  |  | 8 µg/mL |
| O=C(NCc1ccc(C(F)(F)F)cc1)c1ncccc1O | CNCTC MY330/88 |  |  | 125 µM |
| C[C@H]1COc2c(N3CCN(C)CC3)c(F)cc3c(=O)c(C(=O)O)cn1c23 | 101 |  |  | 8 µg/mL |
| O=C(Nc1ccc(F)cc1)c1cc(Br)ccc1O | CNCTC MY330/88 |  |  | 31 µM |
| c1ccc(CO/N=C(/Cn2ccnc2)c2ccccc2)cc1 | CIP103317 |  |  | 0.5 µg/mL |
| C/C(=C\CC[C@H](C)CCO)CC(Cc1ccccc1)C(=O)O |  |  |  | 125 µM |
| CC(C)N=c1cc2n(-c3ccc(Cl)cc3)c3ccccc3nc-2cc1Nc1ccc(Cl)cc1 | ATCC |  |  | 1 µg/mL |
| Clc1ccc(CNc2ccccc2N2CCSCC2)cc1 | 103317 |  |  | >16 µg/mL |
| Cc1c(CN2CCSCC2)cc(-c2ccccc2F)n1-c1cccc2ccccc12 |  |  |  | 2 µg/mL |
| CCCCCCCCCCCC(CC(=O)O)c1ccccc1 |  |  |  | 2.5 µM |
| O=C(NCc1ccc(Cl)c(Cl)c1)c1ncccc1O | CNCTC MY330/88 |  |  | 62.5 µM |
| CC(C)(C)n1cc(C(=O)O)c(=O)c2cc(F)c(N3CCNCC3)nc21 | RG2 |  |  | 2 µg/mL |
| Cc1c(CN2CCSCC2)cc(-c2ccc(F)cc2)n1-c1ccccc1 |  |  |  | >16 µg/mL |
| CCCCCOc1ccc(NC(=O)OCC[NH+]2CCCC2)cc1 | MY330/88 |  |  | 32 µM |
| C(=C\c1ccccc1)/CO/N=C(\Cn1ccnc1)c1ccccc1 | CIP103317 |  |  | 8 µg/mL |
| Cc1c(CN2CCSCC2)cc(-c2ccccc2)n1-c1ccccc1F |  |  |  | >16 µg/mL |
| CCCCCCCCCCCCc1ccc(NC(=O)C2=CCN(C)[C@@H]([C@H](O[C@@H]3O[C@H](CN)[C@@H](O)[C@H]3O)[C@H]3O[C@@H](n4ccc(=O)[nH]c4=O)[C@H](O)[C@@H]3O)C(=O)N2C)cc1 | ATCC 25291 |  |  | 6.25 µg/mL |
| C/C=C\C#CC#C/C=C\C(=O)OC |  |  |  | 25 µg/mL |
| CCCCSc1nnnn1-c1cccc(C)c1 | 80/72 |  |  | 250 µM |
| O=C(Nc1cccc(Br)c1)c1ccc(Cl)cc1OS(=O)(=O)c1ccccc1 | 330/88 |  | 21 d | 500 µM |
| OCCN1CCN(CC/C=C2/c3ccccc3Sc3ccc(Cl)cc32)CC1 | T 10350 |  |  | 25 µg/mL |
| CCCCCCCC(CC(=O)O)c1ccccc1 |  |  |  | >100 µM |
| CCCCCCOc1cccc(NC(=O)OCC[NH+]2CCCC2)c1 | MY330/88 |  |  | 32 µM |
| Cc1nc2scc(-c3ccco3)c2c(=O)n1NC(=O)c1ccco1 | CNCTC MY330/88 |  |  | 101 µM |
| O=C(N/N=C(\COc1ccc(Cl)cc1)N=Cc1ccncc1)c1ccncc1 | ATCC 19421 |  |  | >100 µg/mL |
| O=C(Nc1ccc(F)cc1)c1ncccc1O | CNCTC MY330/88 |  |  | 62.5 µM |
| NC[C@@H]1O[C@H](O[C@H]2[C@@H](O)[C@H](O[C@@H]3[C@@H](O)[C@H](N)C[C@H](N)[C@H]3O[C@H]3O[C@H](CO)[C@@H](O)C[C@H]3N)O[C@@H]2CO)[C@H](N)[C@@H](O)[C@@H]1O[C@H]1O[C@H](CO)[C@@H](O)[C@H](O)[C@@H]1O | 10 strains |  |  | 50 µg/mL |
| Cc1nc2scc(-c3ccco3)c2c(=O)n1NC(=O)c1ccc(Cl)cc1 | CNCTC MY330/88 |  |  | 8 µM |
| COc1ccc(OC/C(N)=N\NC(=O)c2ccncc2)cc1 | ATCC 19421 |  |  | 100 µg/mL |
| CCCCCCCCCCOc1ccc(NC(=O)OCC[NH+]2CCCC2)cc1 | MY330/88 |  |  | 16 µM |
| O=C(N/N=C(\COc1ccccc1)N=Cc1cccnc1)c1ccncc1 | ATCC 19421 |  |  | >100 µg/mL |
| COc1ccc(/C=N/n2c(C)nc3scc(-c4ccco4)c3c2=O)cc1 | CNCTC MY330/88 |  |  | 15 µM |